Pooled drug test results. Numbers come from NIAID ChemDB, via PubChem.

All rows: whole-cell or culture tests; agent: Mycobacterium tuberculosis

Blank or dashed fields: not listed here. Lines come from different laboratories, so protocols vary. Inhibition is in % at the dose shown (toxicity tests: loss of growth or viability). A number after MIC or MFC names an inhibition level or a share of isolates. ECn is the concentration giving n% inhibition of infection, replication or growth. MIC bound comes from a single tested concentration. Fold resistance: result on the changed form divided by that on wild type.

SMILES,measure,tested at,strain,setting,method,mutations,cell line,value
COc1ccc2c3c1OC1C(Oc4nnnn4-c4ccccc4)C=CC4C(C2)N(C)CCC341,inhibition,12.5 µg/mL,H37Rv,-,BACTEC,-,-,10%
C[C@H]1COc2c(N3CCN(C)CC3)c(F)cc3c(=O)c(C(=O)O)cn1c23,MIC50,-,206 isolates (susceptible),-,-,-,-,0.5 µg/mL
CS(=O)(=O)Nc1cccc2c(O)c(Cl)cc(Cl)c12,MIC,-,H37Rv,-,-,-,-,>100 µg/mL
O=c1oc2ccccc2c(O)c1C1=NNC(c2ccc(C(F)(F)F)cc2)C1,MIC90,-,INHR-MTB,-,agar,Isoniazid-resistant,-,14.78 µg/mL
Cc1nc2ccc(N)cc2oc1=O,MIC bound,-,H37Rv,-,BACTEC,-,-,>12.5 µg/mL
CCN=c1cc2n(-c3ccc(C(F)(F)F)cc3)c3ccccc3nc-2cc1Nc1ccc(C(F)(F)F)cc1,MIC,-,2230,multidrug-resistant,-,-,-,≤0.06 µg/mL
O=C1c2cc(Cl)ccc2OC2CCON12,inhibition,6.25 µg/mL,H37Rv,-,resazurin,-,-,-7%
O=c1oc2cc(Cl)ccc2c(=O)n1-c1ccc(Cl)cc1,MIC,-,CNCTC MY331/88,-,-,-,-,4 µM
COC1/C=C\C=C(/C)C(=O)Nc2cc3nc4cc(Br)ccc4oc-3c(c2=O)CC(C)CC(OC)C(O)C(C)/C=C(\C)C1OC(N)=O,MIC,-,H37Rv,-,-,-,-,>12.5 µg/mL
CCn1cc(C(=O)O)c(=O)c2cc(F)c(N3CCN(CC(=O)c4ccc(C)cc4)CC3)cc21,MIC,-,H37Rv,-,-,-,-,>6.25 µg/mL
O=C1C(=O)N(Cc2ccccc2)CC1C(=O)c1ccccc1,MIC bound,-,H37Rv,-,resazurin,-,-,>6.25 µg/mL
Cc1ccc2oc(=O)n(-c3cccc(Cl)c3)c(=O)c2c1,MIC,-,CNCTC MY331/88,-,-,-,-,4 µM
CC(=O)c1c(C)n([O-])c2ccc(Cl)cc2[n+]1=O,EC50,-,H37Rv,inside macrophages,-,-,-,<2.44 µg/mL
Cc1c2oc3c(C)ccc(C(=O)NCCc4ccccn4)c3nc-2c(C(=O)NCCc2ccccn2)c(N)c1=O,MIC bound,-,H37Rv,-,BACTEC,-,-,>12.5 µg/mL
COc1ccc2c(=O)n(-c3ccc(C(F)(F)F)cc3)c(=O)oc2c1,MIC,-,CNCTC MY331/88,-,-,-,-,16 µM
CCn1cc(C(=O)O)c(=O)c2cc(F)c(N3CCN(CC(=O)c4ccc(F)cc4)CC3)nc21,inhibition,6.25 µg/mL,H37Rv,-,-,-,-,44%
C[C@]1(COc2ccc(N3CCC(OCC4CCCCC4)CC3)cc2)Cn2cc([N+](=O)[O-])nc2O1,MIC,-,H37Rv,-,-,-,-,0.012 µg/mL
Cc1cc2oc(=O)c(C3=NNC(c4ccccc4-c4ccccn4)C3)c(O)c2cc1C,MIC90,-,INHR-MTB,-,agar,Isoniazid-resistant,-,>6.25 µg/mL
CCCCn1c(-c2ccc(OC)cc2)cs/c1=N\NC(=O)COc1cnccn1,MIC,-,H37Rv,-,-,-,-,6.6 µg/mL
N#Cc1cccc2cnccc12,MIC,-,H37Rv,-,-,-,-,>100 µg/mL
COc1ccc(-n2c(=O)oc3ccc([N+](=O)[O-])cc3c2=O)cc1,MIC,-,CNCTC MY331/88,-,-,-,-,125 µM
COc1ccc2nccc(C(=O)O)c2c1,MIC,-,H37Rv,-,-,-,-,>100 µg/mL
CO[C@H]1/C=C/O[C@@]2(C)Oc3c(C)c(O)c4c(O)c(c(/C=N/N5CCN(C6CCCC6)CC5)c(O)c4c3C2=O)NC(=O)/C(C)=C\C=C\[C@H](C)[C@H](O)[C@@H](C)[C@@H](O)[C@@H](C)[C@H](OC(C)=O)[C@@H]1C,MIC,-,H37Rv (kanamycin-resistant),-,-,-,-,1.25 µg/mL
CCn1cc(C(=O)O)c(=O)c2cc(F)c(N3CCN(C/C(=N/O)c4ccc(F)cc4)CC3)cc21,inhibition,6.25 µg/mL,H37Rv,-,-,-,-,1%
COc1cccc(C2CC(c3c(O)c4ccccc4oc3=O)=NN2)c1O,MIC90,-,H37Rv,-,agar,-,-,>6.25 µg/mL
O=C(CNC(=O)NCc1ccco1)N/N=C/c1ccccc1O,MIC bound,-,H37Rv,-,BACTEC,-,-,>12.5 µg/mL
Cc1cc2oc(=O)c(C(=O)/C=C/c3ccc(Cl)cc3Cl)c(O)c2cc1C,MIC90,-,H37Rv,-,agar,-,-,>6.25 µg/mL
C/C(=N/O)C(C)C,MIC,-,H37Rv,-,-,-,-,100 µg/mL
CC(C)N1C(=O)CS/C1=N\NC(=O)COc1cnccn1,MIC,-,H37Rv,-,-,-,-,196 µg/mL
CC1C(c2ccccc2)OCCN1C(=S)NC(=O)c1ccccc1,MIC bound,-,H37Rv,-,resazurin,-,-,>6.25 µg/mL
COC(=O)c1cccc2c1C(=O)c1ccccc1C2=O,MIC,-,H37Rv,-,-,-,-,>100 µg/mL
CC(=O)c1c(C)n([O-])c2ccc(C)cc2[n+]1=O,MIC,-,H37Rv,inside macrophages,-,-,-,3.13 µg/mL
Cn1c(=O)c(C(=O)[O-])c2c3c(cccc31)C(=O)c1ccccc1-2.[Na+],MIC,-,H37Rv,-,-,-,-,>100 µg/mL
Cc1cc2oc(=O)c(C3=NN(c4ccccc4)C(c4ccc(O)cc4O)C3)c(O)c2cc1C,MIC90,-,H37Rv,-,agar,-,-,>6.25 µg/mL
C[C@]1(COc2ccc(N3CCN(C/C=C/c4ccccc4OC(F)(F)F)CC3)cc2)Cn2cc([N+](=O)[O-])nc2O1,MIC,-,H37Rv,-,-,-,-,0.024 µg/mL
Cc1ccc(-n2c(=O)oc3ccc(F)cc3c2=O)cc1,MIC,-,CNCTC MY331/88,-,-,-,-,16 µM
NC(=O)c1cnccn1,MIC,-,CDC-BP98 niacin-positive,-,-,-,-,>2048 µg/mL
Cc1ccc(-c2cs/c(=N\NC(=O)COc3cnccn3)n2CC(C)C)cc1,MIC,-,H37Rv,-,-,-,-,8.2 µg/mL
O=c1c(Cl)c(Cl)cnn1-c1ccccc1,MIC bound,-,H37Rv,-,resazurin,-,-,<6.25 µg/mL
CCn1cc(C(=O)O)c(=O)c2cc(F)c(N3CCN(C/C(=N/O)c4ccc(OC)cc4)CC3)cc21,inhibition,6.25 µg/mL,H37Rv,-,-,-,-,27%
NNC(=O)c1n[nH]nc1N,inhibition,12.5 µg/mL,H37Rv,-,BACTEC,-,-,1%
O=C1C2CCCC2C(=O)N1c1ccccc1,MIC,-,H37Rv,-,-,-,-,>100 µg/mL
C[C@]1(COc2ccc(N3CCN(Cc4cc5cc(C(F)(F)F)ccc5o4)CC3)cc2)Cn2cc([N+](=O)[O-])nc2O1,MIC,-,H37Rv,-,-,-,-,0.012 µg/mL
COc1ccc(-c2cs/c(=N\NC(=O)COc3cnccn3)n2-c2ccc(Cl)cc2Cl)cc1,MIC,-,H37Rv,-,-,-,-,15 µg/mL
C[C@]1(COc2ccc(-c3ccc(N4CCCN(c5ccc(OC(F)(F)F)cc5)CC4)cc3)cc2)Cn2cc([N+](=O)[O-])nc2O1,MIC,-,H37Rv,-,-,-,-,0.024 µg/mL
COc1ccc2c(=O)n(-c3ccc(C#N)cc3)c(=O)oc2c1,MIC,-,CNCTC MY331/88,-,-,-,-,32 µM
Cc1ncc(C#N)c(N)n1,MIC,-,H37Rv,-,-,-,-,>100 µg/mL
C=C(C)/C=C/[C@]12C[C@H](C)[C@H]3CC[C@](C)(N)[C@@H](CC[C@H]1C)[C@@H]32,inhibition,128 µg/mL,H37Rv,-,-,-,-,100%
O=[N+]([O-])c1cccc(NC(=S)Nc2ccccc2)c1,MIC,-,H37Rv,-,-,-,-,>100 µg/mL
Cc1c(C(=O)c2ccccc2)[n+](=O)c2cc(Cl)ccc2n1[O-],EC50,-,H37Rv,-,BACTEC,-,VERO,<6.25 µg/mL
CO[C@H]1/C=C/O[C@@]2(C)Oc3c(C)c(O)c4c(O)c(c(/C=N/N5CCN(C6CCCC6)CC5)c(O)c4c3C2=O)NC(=O)/C(C)=C\C=C\[C@H](C)[C@H](O)[C@@H](C)[C@@H](O)[C@@H](C)[C@H](O)[C@@H]1C,MBC,-,Erdman,-,-,-,-,0.25 µg/mL
Cc1c(F)c(N2CCNC(C)C2)cc2c1c(=O)c(C(=O)O)cn2C1CC1,Mean MIC,-,250 isolates,-,-,-,-,0.842 µg/mL
O=CNc1ncc([N+](=O)[O-])s1,inhibition,12.5 µg/mL,H37Rv,-,BACTEC,-,-,1%
O=S1c2ccccc2Oc2ccccc21,MIC,-,H37Rv,-,-,-,-,>100 µg/mL
O=C(COc1cnccn1)N/N=c1\scc(-c2ccc(Cl)cc2Cl)n1-c1ccc(Cl)cc1,MIC,-,H37Rv,-,-,-,-,10.8 µg/mL
CN(CCOC(=O)Nc1ccccc1)CCOC(=O)Nc1ccccc1,MIC,-,H37Rv,-,-,-,-,>100 µg/mL
O=c1oc2ccc([N+](=O)[O-])cc2c(=O)n1-c1cccc(Cl)c1,MIC,-,CNCTC MY331/88,-,-,-,-,31 µM
CCCn1c(=O)c2ccccc2[n+]2c(-c3ccc([N+](=O)[O-])cc3)csc12.[Br-],inhibition,12.5 µg/mL,H37Rv,-,BACTEC,-,-,-1%
CC(=O)NC[C@H]1CN(c2ccc(N3CCOCC3)c(F)c2)C(=O)O1,MIC,-,263 strains,-,-,-,-,0.25 µg/mL
O=c1oc2ccc(F)cc2c(=O)n1-c1ccc(Cl)cc1,MIC,-,CNCTC MY331/88,-,-,-,-,8 µM
Nc1cc([As](=O)(O)O)ccc1C(=O)O,MIC,-,H37Rv,-,-,-,-,>100 µg/mL
C[C@]1(COc2ccc(N3CCN(C/C=C/c4cccc(Cl)c4)CC3)cc2)Cn2cc([N+](=O)[O-])nc2O1,MIC,-,H37Rv,-,-,-,-,0.024 µg/mL
CCOc1ccc(N2CCOC2=O)cc1,MIC,-,H37Rv,-,-,-,-,50 µg/mL
COc1ccc(-c2cs/c(=N\NC(=O)COc3cnccn3)n2C(C)C)cc1,MIC,-,H37Rv,-,-,-,-,22 µg/mL
CCOC(=O)c1ccc(-n2c(=O)oc3cc(Cl)ccc3c2=O)cc1,MIC,-,CNCTC MY331/88,-,-,-,-,8 µM
O=C(O)c1cnc(Cl)cn1,MIC,-,VA 205,-,-,-,-,256 µg/mL
C[C@]1(COc2ccc(N3CCC(Nc4ccc(C(F)(F)F)cc4Cl)CC3)cc2)Cn2cc([N+](=O)[O-])nc2O1,MIC,-,H37Rv,-,-,-,-,0.012 µg/mL
c1cc2c(s1)CCOC21CCN(Cc2ccc3c(c2)OCCO3)CC1,fold resistance,-,H37Rv,-,fluorescence,MmpL3: Tyr252Cys,-,≥33.3
Cc1cc(=O)[nH]o1,inhibition,12.5 µg/mL,H37Rv,-,BACTEC,-,-,12%
Nc1cnc2ccccc2c1C(=O)O,MIC,-,H37Rv,-,-,-,-,>100 µg/mL
Cc1c(CCNC=O)cc(C)c2c3c(oc12)CCCC3,MIC bound,-,H37Rv,-,BACTEC,-,-,>12.5 µg/mL
CC1=NN(c2nc3ccccc3s2)C(=O)C1,MIC,-,H37Rv,-,-,-,-,>100 µg/mL
CCN(CC)c1ccc(N=C2C=C(Cl)C(=O)c3ncccc32)c(C)c1,MIC bound,-,H37Rv,-,BACTEC,-,-,≤12.5 µg/mL
CC1COc2c(N3CCN(C)CC3)c(F)cc3c(=O)c(C(=O)O)cn1c23,MIC,-,SMI 21,-,agar,-,-,0.5 µg/mL
O=c1[nH]c2ccc([N+](=O)[O-])cc2[nH]1,MIC,-,H37Rv,-,-,-,-,>100 µg/mL
O=C1CC(NC(=O)c2ccccc2)C(=O)O1,MIC bound,-,H37Rv,-,BACTEC,-,-,>12.5 µg/mL
C[C@]1(COc2ccc(N3CCC(N4CCN(c5ccc(Cl)cc5)CC4)CC3)cc2)Cn2cc([N+](=O)[O-])nc2O1,MIC,-,H37Rv,-,-,-,-,0.05 µg/mL
CO[C@@]12[C@H](COC(=O)NCCO)C3=C(C(=O)C(C)=C(N)C3=O)N1C[C@H]1[C@@H]2N1C,MIC,-,PZA-R,-,-,-,-,0.8 µg/mL
COc1ccc(N2CCN(Cc3c(C(C)=O)[n+](=O)c4ccccc4n3[O-])CC2)cc1,inhibition,6.25 µg/mL,H37Rv,-,BACTEC,-,-,0%
OCCOc1ccc(Cl)cc1,MIC,-,H37Rv,-,-,-,-,>100 µg/mL
Cc1cc2oc(=O)c(C3=NN(c4ccccc4)C(c4ccc(Cl)cc4Cl)C3)c(O)c2cc1C,MIC90,-,INHR-MTB,-,agar,Isoniazid-resistant,-,>6.25 µg/mL
COc1cc2c(cc1O)CC[n+]1cc3c(OC)c(OC)ccc3cc1-2,inhibition,12.5 µg/mL,H37Rv,-,BACTEC,-,-,5%
CCn1cc(C(=O)O)c(=O)c2cc(F)c(N3CCN(C/C(=N/O)c4ccc(C)cc4)CC3)cc21,inhibition,6.25 µg/mL,H37Rv,-,-,-,-,13%
CC(=O)Nc1cc(OCC(=O)O)ccc1S(=O)(=O)c1ccc(OCC(=O)O)cc1NC(C)=O,inhibition,12.5 µg/mL,H37Rv,-,BACTEC,-,-,21%
O=c1cc[nH]c(=S)[nH]1,MIC,-,H37Rv,-,-,-,-,>100 µg/mL
CC(=O)c1c(C)n([O-])c2ccccc2[n+]1=O,EC50,-,H37Rv,-,BACTEC,-,VERO,<6.25 µg/mL
CCC[CH2][Sn]1([CH2]CCC)[O]C(=O)CN=C(C)c2ccccc2[O]1,inhibition,12.5 µg/mL,H37Rv,-,BACTEC,-,-,99%
CC(=O)C1CN(c2ccccc2)C(=O)C1=O,MIC,-,H37Rv,-,-,-,-,>100 µg/mL

5 of the rows above, restated:

SMILES | measure | tested at | strain | setting | method | mutations | cell line | value
CCn1cc(C(=O)O)c(=O)c2cc(F)c(N3CCN(CC(=O)c4ccc(F)cc4)CC3)nc21 | inhibition | 6.25 µg/mL | H37Rv | - | - | - | - | 44%
CCn1cc(C(=O)O)c(=O)c2cc(F)c(N3CCN(C/C(=N/O)c4ccc(OC)cc4)CC3)cc21 | inhibition | 6.25 µg/mL | H37Rv | - | - | - | - | 27%
CC(=O)c1c(C)n([O-])c2ccccc2[n+]1=O | EC50 | - | H37Rv | - | BACTEC | - | VERO | <6.25 µg/mL
O=c1oc2ccc(F)cc2c(=O)n1-c1ccc(Cl)cc1 | MIC | - | CNCTC MY331/88 | - | - | - | - | 8 µM
COC1/C=C\C=C(/C)C(=O)Nc2cc3nc4cc(Br)ccc4oc-3c(c2=O)CC(C)CC(OC)C(O)C(C)/C=C(\C)C1OC(N)=O | MIC | - | H37Rv | - | - | - | - | >12.5 µg/mL